A mixed list of measured activities; the numbers were collected in NIAID ChemDB.

Common to all: tests in culture; organism: Herpes simplex virus 1; endpoint: inhibition

Percent inhibition refers to the dose given; in toxicity tests it is the harm to the cells.

SMILES,strain or isolate,method,cell line,dose,value
O=C(O)P(=O)(O)O,11-Aug,plaque count,SIRC,500 µM,>99.9%
O=Nc1c(O)n(Cc2ccccc2)c(=O)[nH]c1=O,Leningrad/248/88,cytopathic effect,VERO,100 µg/mL,35%
CCOC(=O)C(C)(C)Oc1ccc(Cl)cc1,TYLER,virus yield,HeLa,800 µM,94%
CCOc1ccc(-n2c(O)c(N=O)c(=O)[nH]c2=O)cc1,Leningrad/248/88,cytopathic effect,VERO,100 µg/mL,30%
O=C(O)P(=O)(O)O,BRAND,cytopathic effect,VERO,238 µM,>25%
O=C(O)CP(=O)(O)O,90155,plaque count,SIRC,100 µM,94%
O=c1c(O)c(-c2ccc(O)c(O)c2)oc2cc(O)cc(O)c12,TK-,,VERO,60 µg/mL,65%
NC(=S)N/N=C\c1nccc2c(O)cccc12,PH,plaque count,VERO,40 µM,35%
COP(=O)(CC(=O)OC[C@H]1O[C@@H](n2cc(CCCl)c(=O)[nH]c2=O)C[C@@H]1O)OC,TK-,cytopathic effect,VERO,227 µM,>25%
COc1cc2c(cc1-c1cc3cc4ccoc4cc3oc1=O)OCO2,KOS,plaque count,VERO,50 µg/mL,26.1%
NC(=S)N/N=C/c1ccc(O)cn1,PH,plaque count,VERO,40 µM,14%
CC1(C)S[C@@H]2[C@H](NC(=O)Cc3ccccc3)C(=O)N2[C@H]1C(=O)O,,plaque count,VERO,1000 µM,0%
CCOC(=O)P(=O)(OC)OC[C@H]1O[C@@H](n2cc(I)c(=O)[nH]c2=O)C[C@@H]1O,BRAND,cytopathic effect,VERO,0.6 µM,>25%
C[C@@]1(CO)[C@H](O)CC[C@@]2(C)[C@H]1CC[C@H]1C[C@@H]3C[C@@]12CC[C@]3(O)CO,,plaque count,VERO,0.005 µg/mL,100%
NC(=S)N/N=C\c1nccc2ccccc12,PH,plaque count,VERO,40 µM,97%
COc1ccc(Cn2c(O)c(N=O)c(=O)[nH]c2=O)cc1,Leningrad/248/88,cytopathic effect,VERO,100 µg/mL,45%
COC(=O)[C@H]1[C@H](O)[C@@H](C)[C@@H](O)[C@](C)(O)/C=C(\C)C2=C3C(=C(C)C(=O)c4c(O)c(c(C)c(OC(C)=O)c43)NC(=O)/C(C)=C/C=C\[C@@H](C)C(O)[C@@H](C)[C@H]1O)OCO2,,plaque count,CV,2.6 µM,0%
O=C(O)P(=O)(O)O,,cytopathic effect,GMK,12.5 µg/mL,40.9%
CC(=O)N[C@H]1[C@@H](O[C@@H]2O[C@H](C[C@@H](O)[C@H]3O[C@@H](n4ccc(=O)[nH]c4=O)[C@H](O)[C@@H]3O)[C@H](O)[C@H](O)[C@H]2NC(=O)/C=C/CC(C)C)O[C@H](CO)[C@@H](O)[C@@H]1O,,plaque count,Chicken fibroblasts,0.5 µg/mL,99.89%
COc1c2c(cc3ccoc13)C(=O)[C@@]1(O)c3cc4c(cc3OC[C@H]1O2)OCO4,KOS,plaque count,VERO,50 µg/mL,56.6%
O=Nc1c(O)n(-c2cccc(C(F)(F)F)c2)c(=O)[nH]c1=O,Leningrad/248/88,cytopathic effect,VERO,100 µg/mL,50%
NNC(N)=O,PH,plaque count,VERO,40 µM,0%
Oc1cc(O)c2c(c1)O[C@H](c1ccc(O)c(O)c1)[C@H](O)[C@H]2c1c(O)cc(O)c2c1O[C@H](c1ccc(O)c(O)c1)[C@H](O)C2,17 syn +,MTT,VERO,200 µM,32%
COP(=O)(CC(=O)OC[C@H]1O[C@@H](n2cc(I)c(=O)[nH]c2=O)C[C@@H]1O)OC,TK-,cytopathic effect,VERO,198 µM,>25%
O=C(O[C@@H]1Cc2c(O)cc(O)cc2O[C@@H]1c1cc(O)c(O)c(O)c1)c1cc(O)c(O)c(O)c1,17 syn +,MTT,VERO,20 µM,71%
O=c1c2c3c(sc2nc(Nc2ccccc2)n1/N=C/c1ccc(Br)cc1)CCCC3,,plaque count,VERO,0.3 µg/mL,30%
Oc1cc(O)c2c(c1)O[C@H](c1cc(O)c(O)c(O)c1)[C@@H](O)C2,17 syn +,MTT,VERO,200 µM,32%
Nn1c(Nc2ccc(Cl)cc2)nc2sc3c(c2c1=O)CCC3,,plaque count,VERO,0.3 µg/mL,40%

Lines come from different laboratories, so protocols vary. An empty or dashed field is not shown.